In PMC11502347 (Frontiers in Microbiology, 2024):

Tests used:
[1] = system: Murine macrophage J774.A1; assay type: cell-based; settings: SI = IC50/MIC90 (Mtb H37Rv)
[2] = system: MRC-5 fibroblasts; assay type: cell-based, human; settings: SI = IC50/MIC90 (Mtb H37Rv)

Compound | SI J774.A1 [1] | SI MRC-5 [2]
O=C(Nc1ccc(N2CCSCC2)c(F)c1)c1ccc2no[n+]([O-])c2c1 [Compound 5b] | 57.14 and 57 | 81.43
NNC(=O)c1ccncc1 [INH, isoniazid] | >750 | >750
CO[C@H]1/C=C/O[C@@]2(C)Oc3c(C)c(O)c4c(O)c(c(/C=N/N5CCN(C)CC5)c(O)c4c3C2=O)NC(=O)/C(C)=C\C=C\[C@H](C)[C@H](O)[C@@H](C)[C@@H](O)[C@@H](C)[C@H](OC(C)=O)[C@@H]1C [RFP, rifampicin] | >2,400 | >2,400

Values joined by “and” are separate entries in the source; they are usually repeats but may differ in a detail not shown here. Equal values may be shown once.
